A compilation of properties of binary mixtures (doi:10.1021/acs.jpcc.7b06523)

Assay: xn = mol fraction of the nth substance listed
Details: 101 kPa

CCC[N+]1(C)CCCC1.O=S(=O)(F)[N-]S(=O)(=O)F + O=S(=O)(F)[N-]S(=O)(=O)F.[K+]
Details	electrical conductivity [S/m]	mass density [kg/m3]	viscosity [mPa·s]
358 K, x2 = 0.1	2.64	1328.8	11.5
358 K, x2 = 0.2	2.24	1370.3	13.8
358 K, x2 = 0.25	2.05	1393.4	15.6
363 K, x2 = 0	3.22	1288.7	8.8
363 K, x2 = 0.05	3.01	1306.3	9.4
363 K, x2 = 0.1	2.87	1325	10.4
363 K, x2 = 0.15	2.68	1345	11.3
363 K, x2 = 0.2	2.46	1366.4	12.5
363 K, x2 = 0.25	2.24	1389.3	14.1
368 K, x2 = 0	3.47	–	8.1
368 K, x2 = 0.05	3.25	–	8.7
368 K, x2 = 0.1	3.1	–	9.6
368 K, x2 = 0.2	2.67	–	11.4
368 K, x2 = 0.25	2.42	–	12.8
373 K, x2 = 0	3.74	–	7.6
373 K, x2 = 0.05	3.5	–	8
373 K, x2 = 0.1	3.34	–	8.8
373 K, x2 = 0.15	3.14	–	9.5
373 K, x2 = 0.2	2.9	–	10.4
373 K, x2 = 0.25	2.61	–	11.5
378 K, x2 = 0	4.01	–	7
378 K, x2 = 0.15	3.38	–	8.8
378 K, x2 = 0.2	3.14	–	9.5
378 K, x2 = 0.25	2.87	–	10.5
383 K, x2 = 0	4.3	–	6.5
383 K, x2 = 0.05	4.05	–	6.9
383 K, x2 = 0.1	3.88	–	7.4
383 K, x2 = 0.15	3.63	–	8.1
383 K, x2 = 0.2	3.38	–	8.7
388 K, x2 = 0	4.61	–	6.1
388 K, x2 = 0.05	4.35	–	6.4
388 K, x2 = 0.1	4.15	–	6.9
388 K, x2 = 0.15	3.88	–	7.5
388 K, x2 = 0.2	3.63	–	8
393 K, x2 = 0	4.95	–	5.7
393 K, x2 = 0.05	4.67	–	6
393 K, x2 = 0.1	4.43	–	6.5
393 K, x2 = 0.15	4.14	–	6.9
393 K, x2 = 0.2	3.88	–	7.4
393 K, x2 = 0.25	3.59	–	8.2
